Compound potency records, mixed from different reports. Data source: NIAID ChemDB in PubChem.

Common to all: cytotoxicity tests; cells: C8166; read-out: CC50

CCn is the concentration with n% toxicity to the cells. Blank or dashed fields: not listed here. Lines come from different laboratories, so protocols vary.

{"SMILES": "COc1ccc(-c2c[nH]c(=S)n2NC(=S)Nc2ccccc2C)cc1", "read by": "MTT", "value": "20.91 µM"}
{"SMILES": "Cc1cccc(C)c1OCC(=O)N[C@@H](Cc1ccccc1)[C@H](O)CN1CC[C@@H](SCc2ccncc2)C[C@H]1C(=O)NC(C)(C)C", "value": ">1 µM"}
{"SMILES": "Cc1cn(C2CC(N=[N+]=[N-])C(COC(=O)c3cn4c5c(c(N6CCN(C)CC6)c(F)cc5c3=O)OCC4C)O2)c(=O)[nH]c1=O", "read by": "MTT", "value": ">328 µM"}
{"SMILES": "O=C(OC1[C@H](OC(=O)c2cc(O)c(O)c(O)c2)CC(O)(C(=O)O)C[C@H]1OC(=O)c1cc(O)c(O)c(O)c1)c1cc(O)c(O)c(O)c1", "value": "15 µg/mL"}
{"SMILES": "N#Cc1cccc2c1oc1ccccc12", "value": ">200 µg/mL"}
{"SMILES": "C=CCN(/C=C/c1ccccc1Br)C(C)=O", "read by": "MTT", "value": "337 µM"}
{"SMILES": "N#Cc1cccc2c1oc1cc(F)ccc12", "value": ">200 µg/mL"}
{"SMILES": "CC(=O)N(/C=C/c1ccccc1Br)Cc1ccccc1", "read by": "MTT", "value": "51 µM"}
{"SMILES": "CC1(C)Oc2cc3oc(=O)ccc3cc2[C@@H](O)[C@@H]1O", "read by": "MTT", "value": ">200 µM"}
{"SMILES": "CC(=O)N(/C=C/c1ccccc1Br)Cc1c(F)cccc1F", "read by": "MTT", "value": "172 µM"}
{"SMILES": "Cc1cccc(C)c1OCC(=O)N[C@@H](Cc1ccccc1)[C@H](O)CN1CC[C@@H](OCc2ccncc2)C[C@H]1C(=O)NC(C)(C)C", "value": ">1 µM"}
{"SMILES": "[N-]=[N+]=NC1CC(n2cc(CN3CCN(c4cc5c(cc4F)c(=O)c(C(=O)O)cn5C4CC4)CC3)c(=O)[nH]c2=O)OC1CO", "read by": "MTT", "value": ">335 µM"}
{"SMILES": "O=[N+]([O-])c1ccc2oc3cc(F)ccc3c2c1", "value": ">200 µg/mL"}
{"SMILES": "CCn1cc(C(=O)OCC2OC(n3cc(C)c(=O)[nH]c3=O)CC2N=[N+]=[N-])c(=O)c2cc(F)c(N3CCN(C(=O)OCc4ccccc4)C(C)C3)c(F)c21", "read by": "MTT", "value": ">272 µM"}
{"SMILES": "Cc1cc(S(N)(=O)=O)ccc1NC(=O)COc1ccc(Cl)cc1NS(=O)(=O)c1ccc(Cl)cc1", "read by": "MTT", "value": "168 µM"}
{"SMILES": "CCN1c2cc(C)c(C)cc2N(C)S(=O)(=O)c2cccnc21", "value": "150 µM"}
{"SMILES": "CCCCC[C@H](O)/C=C/[C@H]1C=CC(=O)[C@@H]1CCCCCCC(=O)O", "value": "140 µM"}
{"SMILES": "O=[N+]([O-])c1cccc2c1oc1cc(F)ccc12", "value": ">200 µg/mL"}
{"SMILES": "CCN(/C=C/c1ccc(OC)cc1OC)C(C)=O", "read by": "MTT", "value": "112 µM"}
{"SMILES": "COc1ccc(-c2c[nH]c(=S)n2NC(=S)Nc2ccc(C)cc2C)cc1", "read by": "MTT", "value": "42.03 µM"}
{"SMILES": "NS(=O)(=O)c1ccc(NC(=O)COc2ccc(Cl)cc2NS(=O)(=O)c2ccc(Cl)cc2)cc1", "read by": "MTT", "value": "127 µM"}
{"SMILES": "CCN1c2ncccc2N(C)C(=S)c2oc3cccnc3c21", "value": ">60 µM"}
{"SMILES": "CC(=O)N(/C=C/c1ccccc1Br)Cc1cc(F)cc(F)c1", "read by": "MTT", "value": "116 µM"}
{"SMILES": "COc1cc2oc(=O)ccc2cc1C[C@@H](OC)C(C)(C)O", "read by": "MTT", "value": ">200 µM"}
{"SMILES": "Cc1ccc(S(=O)(=O)Nc2ccccc2OCC(=O)Nc2ccc(S(N)(=O)=O)cc2)cc1", "read by": "MTT", "value": "193 µM"}
{"SMILES": "Cc1ccc(-c2c[nH]c(=S)n2NC(=S)Nc2ccc(C)cc2C)cc1", "read by": "MTT", "value": "31.69 µM"}
{"SMILES": "COc1ccc(S(=O)(=O)Nc2ccccc2OCC(=O)Nc2ccc(S(N)(=O)=O)cc2)cc1", "read by": "MTT", "value": ">407 µM"}
{"SMILES": "Cc1cc(S[C@@H]2CCN(C[C@@H](O)[C@H](Cc3ccccc3)NC(=O)COc3c(C)cccc3C)[C@H](C(=O)NC(C)(C)C)C2)nc(C)n1", "value": ">1 µM"}
{"SMILES": "NS(=O)(=O)c1ccc(NC(=O)COc2ccccc2NS(=O)(=O)c2ccc([N+](=O)[O-])cc2)cc1", "read by": "MTT", "value": "209 µM"}
{"SMILES": "CCN1c2ncccc2N(C)C(=O)c2c1c1ccccc1n2CC", "value": "25 µM"}
{"SMILES": "Cc1ccc(-c2c[nH]c(=S)n2NC(=S)Nc2ccc(Br)cc2)cc1", "read by": "MTT", "value": "117 µM"}
{"SMILES": "CC1(C)C=Cc2cc3cc(O)c(=O)oc3cc2O1", "read by": "MTT", "value": ">200 µM"}
{"SMILES": "O=C(/C=C/c1ccc(O)c(O)c1)OC1[C@H](OC(=O)/C=C/c2ccc(O)c(O)c2)CC(O)(C(=O)O)C[C@H]1OC(=O)/C=C/c1ccc(O)c(O)c1", "value": "100 µg/mL"}
{"SMILES": "C=CCN(/C=C/c1ccccc1C)C(C)=O", "read by": "MTT", "value": ">930 µM"}
{"SMILES": "O=C(/C=C/c1ccc(O)c(O)c1)O[C@H](Cc1ccc(O)c(O)c1)C(=O)O", "value": "100 µg/mL"}
{"SMILES": "Cc1ccc(NC(=S)Nn2c(-c3ccc(Br)cc3)c[nH]c2=S)c(C)c1", "read by": "MTT", "value": "19.91 µM"}
{"SMILES": "CCn1cc(C(=O)OCC2OC(n3cc(C)c(=O)[nH]c3=O)CC2N=[N+]=[N-])c(=O)c2cc(F)c(N3CCN(C(=O)OCc4ccccc4)CC3)cc21", "read by": "MTT", "value": ">285 µM"}
{"SMILES": "Cc1ccc(NC(=S)Nn2c(-c3ccc(Cl)cc3)c[nH]c2=S)c(C)c1", "read by": "MTT", "value": "25.21 µM"}
{"SMILES": "C=C(CO)[C@@H]1Cc2cc3ccc(=O)oc3cc2O1", "read by": "MTT", "value": ">200 µM"}
{"SMILES": "CC(C)(C)NC(=O)[C@@H]1C[C@@H]2CCCC[C@@H]2CN1C[C@@H](O)[C@H](Cc1ccccc1)NC(=O)[C@H](CC(N)=O)NC(=O)c1ccc2ccccc2n1", "value": "90 µM"}
{"SMILES": "Cc1cn(C2CC(N=[N+]=[N-])C(COC(=O)c3cn(C4CC4)c4c(F)c(N5CC(C)N(C(=O)OCc6ccccc6)C(C)C5NC(=O)OCc5ccccc5)c(F)cc4c3=O)O2)c(=O)[nH]c1=O", "read by": "MTT", "value": ">220 µM"}
{"SMILES": "CN1C(=O)C(c2ccccc2)C(=O)N(c2ccccc2)c2cc(C(F)(F)F)ccc21", "value": ">20 µM"}
{"SMILES": "COc1ccc2oc3c([N+](=O)[O-])cccc3c2c1", "value": ">200 µg/mL"}
{"SMILES": "COc1c(N2CCN(Cc3cn(C4CC(N=[N+]=[N-])C(CO)O4)c(=O)[nH]c3=O)C(C)C2)c(F)cc2c(=O)c(C(=O)O)cn(C3CC3)c12", "read by": "MTT", "value": "251 µM"}

For reference, 6 entries again:

SMILES | read by | value
O=C(/C=C/c1ccc(O)c(O)c1)O[C@H](Cc1ccc(O)c(O)c1)C(=O)O | - | 100 µg/mL
CC1(C)C=Cc2cc3cc(O)c(=O)oc3cc2O1 | MTT | >200 µM
C=C(CO)[C@@H]1Cc2cc3ccc(=O)oc3cc2O1 | MTT | >200 µM
Cc1cc(S(N)(=O)=O)ccc1NC(=O)COc1ccc(Cl)cc1NS(=O)(=O)c1ccc(Cl)cc1 | MTT | 168 µM
Cc1ccc(-c2c[nH]c(=S)n2NC(=S)Nc2ccc(C)cc2C)cc1 | MTT | 31.69 µM
Cc1ccc(NC(=S)Nn2c(-c3ccc(Cl)cc3)c[nH]c2=S)c(C)c1 | MTT | 25.21 µM